Results deposited as PubChem BioAssay AID504761 (Drosophila RNAi Screening Center, 2011).

- Screen: 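Insect host genes that dengue virus relies on to spread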 (primary screen)
- Cells: D.Mel-2 cells from Drosophila
- Knock-down reagent: long dsRNA against Drosophila genes
- Treatment: infection with dengue virus type 2; dose and infection time not stated
- Measured: 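Cells stained for dengue envelope protein and imaged; percent of infected cells per well on duplicate plates, ranked by infection, with stained nuclei counted for cell number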
- Direction: infection score: higher = more virus-infected cells; cell count: higher = more cells in the well
- Hit rule: 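Very low infection ranking in both replicate wells (chance probability at most 0.065), then a retest showing infection dropped 1.5-fold or more at p below 0.05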
- Meaning of the calls: active = confirmed: knock-down lowers infection; inactive = not picked or not confirmed
In all, the deposit lists about 22,000 reagents; below is an unselected part of those that have a named target and a result. Over the whole deposit, 116 (0.52%) were called active. 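Calls depend on retest data that are not deposited; infection was ranked per plate without normalising between plates; the unit of the infection score is not given.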 Raw values vary from plate to plate and are shown uncorrected. A number with no mark means an inactive call. A plus sign joins genes that one reagent is predicted to hit. Not stated in the record: the amount of reagent, the time to read-out.

no.	target gene	DRSC id	infection score, replicate 1	infection score, replicate 2	cell count, replicate 1	cell count, replicate 2
1	CG7714	DRSC16300	15.5	5.5	2609	5779
2	CG7714	DRSC24753	4.52	5.72	6610	6870
3	sv (shaven)	DRSC17221	5.56	1.41	5254	6261
4	sv (shaven)	DRSC27256	15.2	9.42	6626	6054
5	CG11655	DRSC19413	9.67	5.94	6134	6571
6	Pgant7 (Polypeptide N-Acetylgalactosaminyltransferase 7)	DRSC19991	11.8	3.78	6136	6395
7	tho2	DRSC00646	2.87	15	5784	3014
8	tho2	DRSC28626	19.9	28.6	5595	5198
9	CG8026	DRSC07055	1.27	5.09	6229	6818
10	CG8026	DRSC07056	2.9	11.2	6580	5604
11	Fic (Fic domain-containing protein)	DRSC03247	1.41	4.78	6042	6006
12	CG33768	DRSC11715	5.16	6.44	6673	6923
13	CG11951	DRSC14442	2.62	1.39	6537	7219
14	CG11951	DRSC25645	13.4	12.6	6884	6586
15	CG16978	DRSC02553	6.71	4.55	5900	6571
16	CG30109	DRSC05675	8.78	9.91	6073	5692
17	Acp62F (Accessory gland protein 62F)	DRSC08136	0.56	1.22	6301	5726
18	CG33506	DRSC05981	18.3	14	5472	6459
19	jb (jean-baptiste)	DRSC20531	0.68	3.44	6027	6025
20	PH4alphaMP (prolyl-4-hydroxylase-alpha MP)	DRSC17031		0.83	370	606
21	dally (division abnormally delayed)	DRSC08954	1.62	0.8	6286	5976
22	dally (division abnormally delayed)	DRSC11338	6.19	12.2	6441	6682
23	CG2875	DRSC18231	12	4.2	6105	6359
24	CG10011	DRSC14174	2.84	2.64	5633	6021
25	ND-24L (NADH dehydrogenase (ubiquinone) 24 kDa subunit-like)	DRSC10650	1.94	1.65	6351	6130
26	ND-24L (NADH dehydrogenase (ubiquinone) 24 kDa subunit-like)	DRSC28201	8.9	13	4033	6457
27	CG3257	DRSC04351	9.24	18.6	6409	5789
28	CG3257	DRSC27446	13.5	6.95	6746	6659
29	fest (wurstfest)	DRSC07349	3.03	1.52	6003	6731
30	fest (wurstfest)	DRSC24249	13.2	25.5	6134	4205
31	Mekk1	DRSC16302	4.15	1.93	5640	6389
32	Mekk1	DRSC16303	9.78	3.08	5980	5979
33	CG10477	DRSC09732	0.6	3.85	6209	5915
34	CG10477	DRSC23989	4.92	4.3	6051	6090
35	milt (milton)	DRSC00965	3.47	2.31	6164	6111
36	milt (milton)	DRSC00966	8.07	0.91	6454	6404
37	milt (milton)	DRSC02281	5.93	2.11	6036	6263
38	milt (milton)	DRSC28963	9.66	14.5	1283	5688
39	CG14567	DRSC11728	6.51	6.1	6376	6250
40	CG31054 (retired record) + CG4849	DRSC28625	16.9	17.8	6118	5692
41	Root (Rootletin)	DRSC15972	2.81	5.49	6506	6085

Entries listed so far whose target name begins with M or m:
target gene	DRSC id	infection score, replicate 1	infection score, replicate 2	cell count, replicate 1	cell count, replicate 2
Mekk1	DRSC16302	4.15	1.93	5640	6389
Mekk1	DRSC16303	9.78	3.08	5980	5979
milt (milton)	DRSC00965	3.47	2.31	6164	6111
milt (milton)	DRSC00966	8.07	0.91	6454	6404
milt (milton)	DRSC02281	5.93	2.11	6036	6263
milt (milton)	DRSC28963	9.66	14.5	1283	5688

The results go on:
no.	target gene	DRSC id	infection score, replicate 1	infection score, replicate 2	cell count, replicate 1	cell count, replicate 2
42	CG15617	DRSC06570	10.5	10.9	6713	5262
43	CG15617	DRSC27918	8.07	3.46	2714	6700
44	Cyp4p1 (Cytochrome P450 4p1)	DRSC07372	17.3	5.43	6631	6719
45	Cyp4p1 (Cytochrome P450 4p1)	DRSC26036	8.33	5.13	6471	5891
46	sced (scrambled)	DRSC04990	16.8	8.83	6295	6555
47	PIG-T (Phosphatidylinositol glycan anchor biosynthesis class T)	DRSC17774	2	3.79	6589	6758
48	CG13461	DRSC10008	1.71	2.27	5903	6534
49	CG13461	DRSC24462	4.77	9.37	6461	6583
50	Mccc1 (Methylcrotonoyl-CoA carboxylase 1)	DRSC15417	14.1	5.44	6471	6177
51	Mccc1 (Methylcrotonoyl-CoA carboxylase 1)	DRSC27491	10.5	4.16	5808	6826
52	CG11912	DRSC00332	7.72	1.23	4596	6761
53	CG13678	DRSC10036	2.85	1.69	6388	6504
54	Ran-like	DRSC10918	11.6	16.9	1971	6108
55	AP-2sigma (Adaptor Protein complex 2, sigma subunit)	DRSC15957	2.88	0.26	555	381
56	CG5347	DRSC19942	38.3	25	4545	3109
57	fne (found in neurons)	DRSC20332	6.33	25.9	869	2853
58	fne (found in neurons)	DRSC25027	3.1	4.8	6385	6082
59	fne (found in neurons)	DRSC25129	7.49	6.24	5927	6395
60	CG15269	DRSC01942	5.02	7.91	6290	6476
61	CG15269	DRSC24737	4.91	2.47	5986	6286
62	Cog4 (Component of oligomeric golgi complex 4)	DRSC03057	9.69	24.4	6577	5938
63	Nipsnap	DRSC20169	2.08	7.51	6523	6581
64	IntS6 (Integrator 6)	DRSC18281	10.1	10.8	5011	5483
65	IntS6 (Integrator 6)	DRSC30100	2.21	4.67	6571	6379
66	CG30394	DRSC04074	7.53	4.02	6151	6544
67	CG30394	DRSC04260	1.25	5.49	6425	6916
68	SoxN (SoxNeuro)	DRSC03440	8.3	3.73	6207	6300
69	SoxN (SoxNeuro)	DRSC24984	3.11	2.51	5908	6184
70	spt4	DRSC07696	9.41	13.6	6131	5909
71	Cpr64Ad (Cuticular protein 64Ad)	DRSC08284	1.87	2.43	6096	5590
72	Cpr64Ad (Cuticular protein 64Ad)	DRSC25264	5.89	9.52	6010	5643
73	CG1850	DRSC06762	5.34	16.7	6776	3835
74	mys (myospheroid)	DRSC18799	1.09	3.23	6436	6285
75	mys (myospheroid)	DRSC29061	17.9	7.25	5704	1958
